# Values from PubChem BioAssay AID1259414 (Drosophila RNAi Screening Center, 2018).
# Purpose: 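Genome-wide screen for host control of endosymbiont load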 (primary screen)
# Cell system: Drosophila JW18 cells infected with Wolbachia
# Reagent: long dsRNA against Drosophila genes, 0.25 µg dsRNA per well of a 384-well plate
# Timing: 5 days
# Treatment: cells persistently infected with Wolbachia before knock-down; no added drug
# Measurement: 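Automated imaging of bacterial rRNA staining divided by host cell count, reported as plate-normalised robust z-score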
# Scale: Wolbachia per cell robust z: higher = more Wolbachia per host cell than the plate typical
# Call rule: 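Hit when robust z is 1.5 or more, or -1.5 or less, in at least two of three replicates; excludes dsRNAs with several or no targets, genes not expressed in JW18 and well A1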
# The deposit covers about 24,000 reagents; this is a random part of those that have a named target and a result. In the full data, about 1,210 (5%) are marked active. 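Inactive calls also include excluded dsRNAs with several or no targets, genes unexpressed in JW18, and well A1, regardless of score.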 A number with no mark means an inactive call. A plus sign joins genes that one reagent is predicted to hit.
gene,dsRNA,"Wolbachia per cell robust z, rep 1","Wolbachia per cell robust z, rep 2","Wolbachia per cell robust z, rep 3"
CG11307,DRSC11648,1.27,0.805,-2.75
CG11307,DRSC26602,-1.78,0.49,-1.47
CG33226,DRSC37794,1.18,1.26,0.364
Tmtc3,DRSC04444,0.141,0.781,0.311
reb,DRSC06308,-5.92,0.72,0.161
CG31097,DRSC14666,-4.62 (active),0.933,-3.26
CG30065,DRSC05420,-0.316,0.512,0.289
dos,DRSC07992,3.76,2.36,4.45
dos,DRSC08713,-0.319,-0.296,-0.312
dos,DRSC23285,-0.215,0.662,0.61
DptB,DRSC06001,0.682,0.732,0.717
CG9706,DRSC11095,0.521,-0.444,-1.18
CG6951,DRSC10755,-0.707,0.574,0.674
CG17781 + CG17780,DRSC25581,0.464,1.07,0.0422
CG15599,DRSC19668,-1.32,0.609,-4.02
Hsc70-2,DRSC16710,-0.329,0.503,-0.0453
Hsc70-2,DRSC28457,1.3,2.05,1.21
Cpr49Ab,DRSC05341,0.465,1.12,1.02
Cpr49Ab,DRSC25034,1.16,0.291,1.33
Rcd-1,DRSC19569,0.208,0.706,0.864
mal,DRSC20581,1.38,0.328,-1.04
mal,DRSC27085,0.818,1.35,0.48
CG5645,DRSC10532,0.781,1.44,0.138
RpS18,DRSC07540,1.92,0.551,0.0475
BthD,DRSC19395,0.109,-2.54,0.139
BthD,DRSC25871,-1.13,-0.325,0.19
MED1,DRSC11808,-1.72,-0.0499,0.195
CG30427,DRSC04014,0.505,-2.45,-2
CG30427,DRSC04311,0.016,-0.966,0.0209
CG30427,DRSC04323,-0.664,-0.0268,0.306
CG30427,DRSC26361,-6.34,-8.39,-1.31
CG11588,DRSC09145,0.234,-0.958,-0.545
CG11588,DRSC09846,0.853,-0.149,0.107
CG16974,DRSC02551,0.525,-0.779,-1
CG16974,DRSC28759,-0.131,-2.67,-1.25
yellow-c,DRSC41322,0.56,0.663,0.656
RpLP1,DRSC00783,1.87 (active),2.45,3.86
RpLP1,DRSC22145,0.524,-0.0365,0.422
RpLP1,DRSC23411,0.459 (active),3.58,2.78
Cp7Fb,DRSC18034,0.163,-0.149,0.137
CG1688,DRSC23207,0.315,0.875,0.116
CG42795,DRSC12772,-0.108,-0.273,-0.197
CG42795,DRSC15533,-2.17,1.98,-0.0464
CG42795,DRSC24766,0.901,-1,-0.00401
CG42795,DRSC41315,0.676,-1.17,0.0618
CG42795,DRSC41333,0.875,0.117,0.0356
